Literature values as cited in paper PMC12384205.
pKd: −log10 of the molar value.

Legend:
[1] = biological target: integrin αvβ3 (Homo sapiens) (UniProt P06756); conditions: cited from earlier work
[2] = biological target: integrin αvβ6 (Homo sapiens) (UniProt P06756); conditions: cited from earlier work

For “SARS-CoV-2 S1-RBD RBD (from UniProt P0DTC2)”, the pKd [1] is given as less than 6.30 and the pKd [2] is given as 6.64.
